Anti-infective test results gathered from many reports (values: NIAID ChemDB through PubChem).

All rows: tests in culture; species: HIV-1; cell line: PBMC; measure: EC50

Conditions beyond the fields shown may differ between rows.

compound,strain or isolate,mutations,method,conditions,value
Cc1cn([C@H]2C=C[C@@H](CO)O2)c(=O)[nH]c1=O,Recombinant,RT-Q151M,p24,,0.05 µM
COC(=O)[C@H](C)NP(=O)(OC[C@@H]1C=C[C@H](n2cc(C)c(=O)[nH]c2=O)O1)Oc1ccc(Br)cc1,4755-5 NRTI resistant recombinant,RT-M41L E44D D67N T69D Y118I M184V L210W T215Y,RT activity,,0.0006 µM
Cc1cn([C@H]2C[C@H](N=[N+]=[N-])[C@@H](CO)O2)c(=O)[nH]c1=O,Y270-7 Clinical isolate ZDV-resistant,RT-M41W Y188L T215N,p24,,1.5 µM
CCc1c(C(=O)c2cc(C)cc(C)c2)n(CC2CC=CC2)c(=O)[nH]c1=O,WEJO,,cytopathic effect / XTT,clinical isolate,0.0002 µM
O=C1N(Cc2ccc(CO)cc2)[C@H](Cc2ccccc2)[C@H](O)[C@@H](O)[C@@H](Cc2ccccc2)N1Cc1ccc(CO)cc1,A012B pre,,p24,,0.018 µM
S=C(NCCc1cccs1)Nc1ccc(Br)cn1,X267-2 Clinical isolate NRTI-resistant,RT-M41L T215Y,p24,,0.0003 µM
Cc1cn([C@H]2C[C@H](N=[N+]=[N-])[C@@H](CO)O2)c(=O)[nH]c1=O,7324-1 NRTI resistant recombinant,RT-M41L D67N T69N K70R T215F K219E,p24,,>1 µM
Cc1cn([C@H]2C[C@H](N=[N+]=[N-])[C@@H](CO)O2)c(=O)[nH]c1=O,Recombinant,RT-V75I,p24,,0.001 µM
CC(C)(C)NC(=O)[C@@H]1C[C@@H]2CCCC[C@@H]2CN1C[C@@H](O)[C@H](Cc1ccccc1)NC(=O)[C@H](CC(N)=O)NC(=O)c1ccc2ccccc2n1,BCF08,PR-L10V K20C M36I L63T I64V A71V,,,0.0164 µM
c1cc(CN2CCCNCCNCCCNCC2)ccc1CN1CCCNCCNCCCNCC1,SW29 CLADE C R5,,p24,,>0.5 µM
COC(=O)[C@H](C)NP(=O)(OC[C@@H]1C=C[C@H](n2cc(C)c(=O)[nH]c2=O)O1)Oc1ccc(Br)cc1,X267-2 Clinical isolate ZDV-resistant,RT-M41L T215Y,p24,,0.00018 µM
O=c1[nH]cnc2c1ncn2[C@H]1CC[C@@H](CO)O1,BCF07,RT-A98G V106I Y181C,,,0.5 µM
Nc1ccn([C@@H]2CS[C@H](CO)O2)c(=O)n1,7324-1 NRTI resistant recombinant,RT-M41L D67N T69N K70R T215F K219E,p24,,0.8 µM
Cc1cn([C@H]2C[C@H](N=[N+]=[N-])[C@@H](CO)O2)c(=O)[nH]c1=O,9632 CLADE B CLADE B,,p24,,0.021 µM
Nc1ccn([C@H]2CC[C@@H](CO)O2)c(=O)n1,BCF01,RT-A98G K103R Y181C,,,0.02 µM

The last 2 rows once more:

compound	strain or isolate	mutations	method	conditions	value
Cc1cn([C@H]2C[C@H](N=[N+]=[N-])[C@@H](CO)O2)c(=O)[nH]c1=O	9632 CLADE B CLADE B		p24		0.021 µM
Nc1ccn([C@H]2CC[C@@H](CO)O2)c(=O)n1	BCF01	RT-A98G K103R Y181C			0.02 µM

ECn: concentration that inhibits the pathogen or its effect by n%. An empty or dashed field is not shown.